Literature values as cited in PMC2770954.

Target: HIV-1 reverse transcriptase p51 p51 (Human immunodeficiency virus 1) (UniProt O93215)
Settings: cited from earlier work

In the case of “HIV-1 reverse transcriptase p51 p51 (from UniProt O93215)”, the Kd is listed as 230 µM.
